A mixed list of measured activities; the numbers were collected in NIAID ChemDB.

All rows: tests on isolated targets; organism: HIV-1; target: Reverse transcriptase; measure: Ki

An empty or dashed field is not shown. Neighbouring rows are from separate reports.

smiles | changes | strain | value
O=C(O)C1=C[C@@H](OC(=O)c2cc(O)c(O)c(O)c2)[C@@H](OC(=O)c2cc(O)c(O)c(O)c2)[C@H](OC(=O)c2cc(O)c(O)c(O)c2)C1 | - | - | 0.05 µM
Nc1nc2c(ncn2[C@H]2C=C[C@@H](COP(=O)(O)OP(=O)(O)OP(=O)(O)O)C2)c(=O)[nH]1 | - | - | 0.021 µM
C[C@@H](NC(=S)Nc1ccc(Br)cn1)c1cccc2ccccc12 | - | - | 0.01 µM
Cc1cn([C@@H]2C=C[C@H](COP(=O)(O)OP(=O)(O)OP(=O)(O)O)O2)c(=O)[nH]c1=O | - | - | 15 µM
C[C@H](NC(=S)Nc1ccc(Br)cn1)c1cccc2ccccc12 | - | - | >100 µM
[B-][P@](=O)(OC[C@H]1O[C@@H](n2cc(C)c(=O)[nH]c2=O)C[C@@H]1N=[N+]=[N-])OP(=O)(O)OP(=O)(O)O | - | - | 0.009 µM
O=C(O[C@@H]1Cc2c(O)cc(O)cc2O[C@@H]1c1ccc(O)c(O)c1)c1cc(O)c(O)c(O)c1 | - | LAV | 0.0028 µM
Cc1cn([C@H]2CC[C@@H](COP(=O)(O)OP(=O)(O)OP(=O)(O)O)O2)c(=O)[nH]c1=O | - | IIIB | 0.0019 µM
Nc1ncnc2c1ncn2[C@@H]1CO[C@H](COP(=O)(O)OP(=O)(O)OP(=O)(O)O)C1 | - | - | 0.016 µM
O=C(O)[C@H]1O[C@@H](Oc2cc3oc(-c4ccccc4)cc(=O)c3c(O)c2O)[C@H](O)[C@@H](O)[C@@H]1O | - | LAV | 1.5 µM
[B-][P@](=O)(OC[C@H]1O[C@@H](n2cc(C)c(=O)[nH]c2=O)C[C@@H]1N=[N+]=[N-])OP(=O)(O)OP(=O)(O)O | - | - | 0.00825 µM
Cc1cccc2sc(NC(=S)N[C@@H](C)c3cccc4ccccc34)nc12 | - | - | >100 µM
Nc1nc(N)c2ncn([C@H]3CO[C@@H](COP(=O)(O)OP(=O)(O)OP(=O)(O)O)O3)c2n1 | - | - | 250 µM
C[C@@H](CNC(=S)Nc1ccc(Cl)cn1)C1CCCCC1 | - | - | 1.2 µM
Cc1cn([C@H]2C[C@H](O)[C@@H](COP(=O)(O)NP(=O)(O)OP(=O)(O)O)O2)c(=O)[nH]c1=O | - | - | 2.4 µM
Cc1cn([C@H]2CC[C@@H](COP(=O)(O)OP(=O)(O)OP(=O)(O)O)O2)c(=O)[nH]c1=O | - | - | 0.025 µM
Nc1ccn([C@@H]2CS[C@H](COP(=O)(O)OP(=O)(O)OP(=O)(O)O)O2)c(=O)n1 | - | - | 0.97 µM
[B-][P@](=O)(OC[C@H]1O[C@@H](n2cc(C)c(=O)[nH]c2=O)C[C@@H]1N=[N+]=[N-])OP(=O)(O)C(F)(F)P(=O)(O)O | - | - | 0.008 µM
CSCSc1nc(Cc2ccccc2)c(C(C)C)c(=O)[nH]1 | - | IIIB | 0.5 µM
O=c1cc(-c2ccccc2)oc2cc(O)c(O)c(O)c12 | - | - | 2.52 µM
Nc1nc2c(ncn2[C@H]2CO[C@@H](COP(=O)(O)OP(=O)(O)OP(=O)(O)O)O2)c(=O)[nH]1 | - | - | 0.019 µM
Nc1ccn([C@@H]2CS[C@H](COP(=O)(O)OP(=O)(O)OP(=O)(O)O)O2)c(=O)n1 | RT-M184V | - | 61 µM
Cc1cn([C@H]2C[C@H](F)[C@@H](COP(=O)(O)OP(=O)(O)OP(=O)(O)O)O2)c(=O)[nH]c1=O | - | LAV | 0.018 µM
O=P(O)(O)OP(=O)(O)O | RT-H208Y | - | 2700 µM
Nc1nc2c(ncn2[C@@H]2C=C[C@H](COP(=O)(O)OP(=O)(O)OP(=O)(O)O)C2)c(=O)[nH]1 | RT-M184V | - | 30 µM
C[C@H](CNC(=S)Nc1ccc(Br)cn1)C1CCCCC1 | - | - | >100 µM
Nc1nc2c(ncn2[C@H]2C=C[C@@H](COP(=O)(O)OP(=O)(O)OP(=O)(O)O)C2)c(=O)[nH]1 | - | - | 0.05 µM
Cc1cn([C@H]2C=C[C@@H](COP(=O)(O)OP(=O)(O)OP(=O)(O)O)O2)c(=O)[nH]c1=O | - | - | 5.2 µM

A second listing of 3 rows from above:

| smiles | changes | strain | value |
|---|---|---|---|
| O=C(O)[C@H]1O[C@@H](Oc2cc3oc(-c4ccccc4)cc(=O)c3c(O)c2O)[C@H](O)[C@@H](O)[C@@H]1O | - | LAV | 1.5 µM |
| Nc1nc2c(ncn2[C@H]2CO[C@@H](COP(=O)(O)OP(=O)(O)OP(=O)(O)O)O2)c(=O)[nH]1 | - | - | 0.019 µM |
| C[C@H](CNC(=S)Nc1ccc(Br)cn1)C1CCCCC1 | - | - | >100 µM |